US20210261570A1, “ANTIBIOTIC RESISTANCE BREAKERS” (KING'S COLLEGE LONDON, priority 2017, published 2021)

Test system: S. aureus SA 282
Assay: MIC, MDR strains with target mutations
Format: cell-based
Parameters: unit not given beside the values

C[C@H]1COc2c(N3CCN(C)CC3)c(F)cc3c(=O)c(C(=O)O)cn1c23 [Levofloxacin, levofloxacin]
MIC: 16
